# Reference: US20220387579A1
# Legend:
# EBOV/Mak GP = EBOV/Mak GP (UniProt P87666); experiment: SPR
# Ebola = Ebola (UniProt P87666); experiment: ELISA
Substance,Kd (EBOV/Mak GP) [nM],EC50 (Ebola) [µg/mL]
6D8,3.67,0.0882
13C6,8.35,0.0623
